Pooled drug test results. Numbers come from NIAID ChemDB, via PubChem.

Shared fields: growth or infection tests; organism: HIV-1; cells: CEM; read-out: EC50

Blank or dashed fields: not listed here. ECn is the concentration giving n% inhibition of infection, replication or growth. Conditions beyond the fields shown may differ between rows.

| SMILES | strain or isolate | changes | method | value |
|---|---|---|---|---|
| O=c1[nH]cnc2c1ncn2[C@H]1CC[C@@H](CO)O1 | RTMC (RT D67N K70R T215F K219Q) | RT-D67N K70R T215F K219Q | p24 | 2.9 µg/mL |
| CCNc1cccnc1N1CCN(C(=O)c2cc3cc(OC)ccc3[nH]2)CC1 | IIIB TIBO R82913-resistant (RT K103N) | RT-K103N | syncytia | 1.7 µg/mL |
| CN1C(=O)N(Cc2ccccc2)S(=O)(=O)c2cscc21 | - | RT-K103N | syncytia | >324 µM |
| Nc1nc(N2CCOCC2)c2ncn(CCOCP(=O)(O)O)c2n1 | IIIB | - | cytopathic effect / MTT | >20 µg/mL |
| CC(C)=CCN1Cc2cc(Cl)cc3[nH]c(=S)n(c23)C[C@@H]1C | IIIB | RT-Y181C | p24 | 2 µg/mL |
| O=c1[nH]cnc2c1ncn2[C@H]1CC[C@@H](CO)O1 | HXB2 | - | syncytia | 1.7 µg/mL |
| O=c1[nH]cnc2c1ncn2[C@H]1CC[C@@H](CO)O1 | IIIB TIBO R82913 STR-B02 (RT L100I E138K) | RT-L100I E138K | syncytia | 6.5 µM |
| Cc1ccnc2c1NC(=O)c1cccnc1N2C1CC1 | - | RT-V106A | syncytia | 3 µM |
| C[C@H](C[n+]1c[nH]c2c(NCCCCCCCC3CCCCC3)nc(N)nc21)OCP(=O)(O)O | IIIB | - | cytopathic effect / MTT | 20 ± 17 µg/mL |
| CCOC(=O)c1cc(O)c(O)c(O)c1 | IIIB | - | syncytia | 1.5 µg/mL |
| Cc1cn([C@@H]2O[C@H](CO[Si](C)(C)C(C)(C)C)C3(OS(=O)(=O)C=C3N)[C@H]2O[Si](C)(C)C(C)(C)C)c(=O)n(CCOC(=O)[C@@H](N)C(C)C)c1=O | IIIB | - | syncytia | 0.05 µM |
| Cc1cc(=O)oc2cc(O)c(O)cc12 | IIIB | - | syncytia | 2.7 µg/mL |
| CCOCn1c(Cc2cc(C)cc(C)c2)c(CC)c(=O)[nH]c1=O | IIIB NEV(RT-V106A) | RT-V106A | syncytia | 0.03 µg/mL |
| Cc1cn([C@@H]2O[C@H](CO[Si](C)(C)C(C)(C)C)C3(OS(=O)(=O)C=C3N)[C@H]2O[Si](C)(C)C(C)(C)C)c(=O)n(C)c1=O | IIIB | RT-Y188L | syncytia | ≥50 µg/mL |
| Cc1ccnc2c1NC(=O)c1cccnc1N2C1CC1 | IIIB | RT-V106A | p24 | 2.3 µg/mL |
| Cc1cn([C@H]2C[C@H](N=[N+]=[N-])[C@@H](CO)O2)c(=O)[nH]c1=O | IIIB TIBO R82150-resistant (RT L100I) | RT-L100I | syncytia | 0.003 µM |
| C[C@H](C[n+]1c[nH]c2c(N(C)C)nc(N)nc21)OCP(=O)(O)O | IIIB | - | cytopathic effect / MTT | 10 µg/mL |
| COC(=O)[C@@H](C)NP(=O)(OC[C@@H]1C=C[C@H](n2cc(C)c(=O)[nH]c2=O)O1)Oc1ccccc1 | - | - | - | 3 µM |
| Nc1nc2c(ncn2C[C@H](CCF)OCP(=O)(O)O)c(=O)[nH]1 | BRU | - | XTT | >100 µM |
| C[C@H](COc1cc(N)nc(N)n1)OCP(=O)(O)O | Clinical isolate DE434.4 | RT-K65R S68G T69I V75T Q151M | syncytia | ≥20 µg/mL |
| CCc1cc(NCc2nc3c(Cl)ccc(Cl)c3o2)c(=O)[nH]c1C | Quin-0.1 (RT V106A P225H) | RT-V106A P225H | syncytia | 0.085 µM |
| Cc1occc1C(=S)Nc1ccc(Cl)c(/C=N/OC(C)(C)C)c1 | HXB2 | - | syncytia | 0.02 µg/mL |
| C=C(C)OC(=O)N1c2cc(Cl)ccc2NC(=S)C1(C)C | MN | - | syncytia | 0.003 µM |
| Cc1cn([C@H]2C[C@H](N=[N+]=[N-])[C@@H](CO)O2)c(=O)[nH]c1=O | D-3 (RT-V108I M184I) | RT-V108I M184I | cytopathic effect | 0.0042 µM |
| COc1ccc2c(c1)N(C(=O)OC(C)C)[C@@H](CSC)C(=S)N2 | IIIB | RT-M184V | p24 | 0.003 µg/mL |
| C[C@H](Cn1cnc2c(N)ncnc21)OCP(=O)(O)O | IIIB | - | syncytia | 4.2 µM |
| CCOCn1c(Cc2ccccc2)c(CC)c(=O)[nH]c1=O | IIIB TIBO R82913-resistant (RT K103N) | RT-K103N | syncytia | 0.24 µg/mL |
| CC(C)=CCN1Cc2cc(Cl)cc3[nH]c(=S)n(c23)C[C@@H]1C | IIIB | - | syncytia | 0.06 µM |
| Cc1occc1C(=S)Nc1ccc(Cl)c(/C=N/OC(C)(C)C)c1 | IIIB | RT-K103N | syncytia | ≥1 µg/mL |
| CCCOC(=O)c1cc(O)c(O)c(O)c1 | IIIB | - | syncytia | 2.7 µg/mL |
| Cc1cn([C@@H]2O[C@H](CO[Si](C)(C)C(C)(C)C)C3(OS(=O)(=O)C=C3N)[C@H]2O[Si](C)(C)C(C)(C)C)c(=O)n(C)c1=O | NNRTI-resistant | RT-V106A | cytopathic effect | >15 µM |
| CC(C)(C)[Si](C)(C)OC[C@H]1O[C@@H](n2ccc(=O)[nH]c2=O)[C@H](O[Si](C)(C)C(C)(C)C)C12OS(=O)(=O)C=C2N | IIIB | - | syncytia | 0.13 µM |
| CCc1cc(NCc2nc3c(Cl)ccc(Cl)c3o2)c(=O)[nH]c1C | IIIB E-EBU(RT-Y181C) | RT-Y181C | syncytia | >10 µg/mL |
| Cc1cn([C@@H]2O[C@H](CO[Si](C)(C)C(C)(C)C)[C@@]3(OS(=O)(=O)C=C3N)[C@H]2O[Si](C)(C)C(C)(C)C)c(=O)n(CC(=O)N[C@@H](CCC(=O)O)C(=O)O)c1=O | IIIB | - | syncytia | 10 µM |
| CC(C)Nc1cccnc1N1CCN(C(=O)c2cc3cc(NS(C)(=O)=O)ccc3[nH]2)CC1 | IIIB WT | - | cytopathic effect | 0.016 µM |
| CCCCCNc1nc(N)nc2c1[nH]c[n+]2C[C@@H](C)OCP(=O)(O)O | IIIB | - | cytopathic effect / MTT | 20 µg/mL |
| CC(C)=CCN1Cc2cc(Cl)cc3[nH]c(=S)n(c23)C[C@@H]1C | MN-QUIN(RT-G190E) | RT-G190E | syncytia | 16 µM |
| CCOCn1c(Cc2ccccc2)c(C(C)C)c(=O)[nH]c1=O | D-3 (RT-V108I M184I) | RT-V108I M184I | cytopathic effect | 0.015 µg/mL |
| Nc1ncnc2c1ncn2CCOCP(=O)(O)O | IIIB nevirapine-resistant (RT Y181C) | RT-Y181C | syncytia | 25 µM |
| CCn1c(=O)c(C)cn([C@@H]2O[C@H](CO[Si](C)(C)C(C)(C)C)C3(OS(=O)(=O)C=C3N)[C@H]2O[Si](C)(C)C(C)(C)C)c1=O | IIIB | RT-E138K | syncytia | >80 µM |
| Nc1nc2c(ncn2C[C@@H](CF)OCP(=O)(O)O)c(=O)[nH]1 | BRU | - | XTT | 77 µM |
| Nc1ccn([C@@H]2CS[C@H](CO)O2)c(=O)n1 | IIIB WT | - | cytopathic effect | 0.044 µM |
| Nc1ncnc2c1ncn2CCOCP(=O)(O)O | HE | - | syncytia | 17 µM |
| Cc1c(N)nc(N)nc1OCCOCP(=O)(O)O | IIIB | - | syncytia | 0.062 µg/mL |
| Cc1cn([C@@H]2O[C@H](CO[Si](C)(C)C(C)(C)C)C3(OS(=O)(=O)C=C3N)[C@H]2O[Si](C)(C)C(C)(C)C)c(=O)n(C)c1=O | IIIB nevirapine-resistant (RT Y181C) | RT-Y181C | syncytia | >50 µM |
| C[C@H](Cn1cnc2c(N)ncnc21)OCP(=O)(O)O | IIIB | - | syncytia | 0.79 µg/mL |
| N#CCN1C(=O)N(Cc2cccc(F)c2)S(=O)(=O)c2cscc21 | - | RT-Y181C | syncytia | 28.5 µM |
| CCN(C)c1nc(N)nc2c1ncn2CCOCP(=O)(O)O | IIIB | - | cytopathic effect / MTT | 0.55 µg/mL |
| CCOCn1c(Sc2ccccc2)c(CC)c(=O)[nH]c1=S | IIIB PYR(RT-Y181C) | RT-Y181C | syncytia | 0.53 µg/mL |
| CCCCNc1nc(N)nc2c1ncn2CCOCP(=O)(O)O | IIIB | - | cytopathic effect / MTT | 2 µg/mL |
| Nc1ccn([C@H]2CC[C@@H](CO)O2)c(=O)n1 | IIIB TIBO R82913 STR-2 (RT K103N) | RT-K103N | syncytia | 0.02 µM |
| Nc1ncnc2c1ncn2CCOCP(=O)(O)O | Clinical isolate C19 | RT-M41L V118I L210W T215Y | syncytia | 25 µg/mL |
| O=c1[nH]cnc2c1ncn2[C@H]1CC[C@@H](CO)O1 | IIIB | RT-E138K | syncytia | 10 µM |
| Nc1ccn([C@H]2CC[C@@H](CO)O2)c(=O)n1 | HXB2 | RT-M41L T215Y | syncytia | 0.038 µg/mL |
| CCN1C(=O)N(Cc2cccc(Cl)c2)S(=O)(=O)c2cscc21 | IIIB | - | syncytia | 1.1 µM |
| Nc1nc2c(ncn2C[C@@H](CCO)OCP(=O)(O)O)c(=O)[nH]1 | BRU | - | XTT | >100 µM |
| CC(C)Nc1cccnc1N1CCN(C(=O)c2cc3cc(NS(C)(=O)=O)ccc3[nH]2)CC1 | C-1 (RT-K101E) | RT-K101E | cytopathic effect | 0.0031 µg/mL |
| C[C@H](C[n+]1c[nH]c2c(Nc3ccoc3)nc(N)nc21)OCP(=O)(O)O | IIIB | - | cytopathic effect / MTT | 7 ± 4.2 µg/mL |
| Cc1cn([C@H]2C[C@H](N=[N+]=[N-])[C@@H](CO)O2)c(=O)[nH]c1=O | IIIB | - | syncytia | 0.006 µg/mL |
| O=c1[nH]cccc1O | IIIB | - | syncytia | 17 µg/mL |
| CC(C)Nc1cccnc1N1CCN(C(=O)c2cc3cc(NS(C)(=O)=O)ccc3[nH]2)CC1 | IIIB | RT-E138K | syncytia | 0.016 µg/mL |
| Nc1nc2c(ncn2[C@H]2CC[C@@H](CO)O2)c(=O)[nH]1 | IIIB TIBO R82913 STR-2 (RT K103N) | RT-K103N | syncytia | 2 µM |
| COc1ccc2c(c1)N(C(=O)OC(C)C)[C@@H](CSC)C(=S)N2 | HXB2 | RT-M41L T215Y | syncytia | 0.001 µg/mL |
| Cc1cn([C@@H]2O[C@H](CO[Si](C)(C)C(C)(C)C)C3(OS(=O)(=O)C=C3N)[C@H]2O[Si](C)(C)C(C)(C)C)c(=O)n(C)c1=O | IIIB | - | syncytia | 0.04 µM |

A second listing of 6 rows from above:

SMILES | strain or isolate | changes | method | value
Cc1occc1C(=S)Nc1ccc(Cl)c(/C=N/OC(C)(C)C)c1 | HXB2 | - | syncytia | 0.02 µg/mL
CCc1cc(NCc2nc3c(Cl)ccc(Cl)c3o2)c(=O)[nH]c1C | Quin-0.1 (RT V106A P225H) | RT-V106A P225H | syncytia | 0.085 µM
COC(=O)[C@@H](C)NP(=O)(OC[C@@H]1C=C[C@H](n2cc(C)c(=O)[nH]c2=O)O1)Oc1ccccc1 | - | - | - | 3 µM
C[C@H](C[n+]1c[nH]c2c(Nc3ccoc3)nc(N)nc21)OCP(=O)(O)O | IIIB | - | cytopathic effect / MTT | 7 ± 4.2 µg/mL
Nc1ccn([C@@H]2CS[C@H](CO)O2)c(=O)n1 | IIIB WT | - | cytopathic effect | 0.044 µM
Cc1cn([C@@H]2O[C@H](CO[Si](C)(C)C(C)(C)C)C3(OS(=O)(=O)C=C3N)[C@H]2O[Si](C)(C)C(C)(C)C)c(=O)n(C)c1=O | IIIB nevirapine-resistant (RT Y181C) | RT-Y181C | syncytia | >50 µM